Measured values from ChEMBL document CHEMBL2163206, “New nitrogen containing substituents at the indole-2-carboxamide yield high potent and broad spectrum indolylarylsulfone HIV-1 non-nucleoside reverse transcriptase inhibitors” (J Med Chem, 2012).

Tests used:
[1] = molecular target: Human immunodeficiency virus type 1 reverse transcriptase (Human immunodeficiency virus 1, UniProt Q72547, L100I); test: Inhibition of HIV1 reverse transcriptase L100I mutant RNA-dependent DNA polymerase activity using poly(rA)/oligo(dT)10:1 and [3H]-dTTP substrate
[2] = molecular target: Human immunodeficiency virus type 1 reverse transcriptase (Human immunodeficiency virus 1, UniProt Q72547, K103N); test: Inhibition of HIV1 reverse transcriptase K103N mutant RNA-dependent DNA polymerase activity using poly(rA)/oligo(dT)10:1 and [3H]-dTTP substrate

Work on Cc1cc(C#N)cc(C)c1Oc1nc(Nc2ccc(C#N)cc2)nc(N)c1Br [ETRAVIRINE] yielded an IC50 [1] of 10 nM and an IC50 [2] of 20 nM.
